The results in this text go back to PMC9998450.

The subject of this series is His-MBP-AlpA (Pseudomonas aeruginosa ID40). The experiment in a line: EMSA. Conditions: recombinant protein, protein details: N-terminal His-MBP (TEV site), not removed, label: 5' IRDye700. (In general: In EMSA bound probe runs differently from free probe, usually more slowly.)

The exact form of at least one protein or probe is not confirmed.

Regarding “CGGTGTTGCACGCGGCGGGACGCTCGCGGTAGTTTTTTCCCATGATCACG (double strand) [ABE probe (ampDh3 promoter)]”, the binding result is, setting by setting: (0.3125 nM probe, weak, smeary shift) “binds”; (plus BSA (complex formation not affected)) “binds”.
